According to patent US20100144704A1, “Method of reducing amyloid-beta peptide levels using a bisdioxopiperazine” (priority 2006, published 2010):
Where “and” joins values, the source holds several entries; their conditions need not be identical. Equal values may be shown once.

Tested on: Aβ1-40 peptide
Experiment: Brain Aβ1-40 by sandwich ELISA in double transgenic mice after 21 day razoxane treatment
Assay type: in vivo
Conditions: individual mouse cerebral cortex sample
Procedure: Double transgenic male mice (APP Swedish mutation+PS1 mutation) express human amyloid precursor protein (APP) and amyloid-β peptide (Aβ) within their brain and form amyloid depositions from 4 months onward. Razoxane (ICRF 159) was administered by intraperitoneal (i.p.) injection once daily for 21 consecutive days to a group of such mice, 5 to 6 months of age and approximately 22 to 28 g in weight. […] Within three hours of the final razoxane/vehicle administration, animals were killed, their brain exposed and a 50-80 mg sample of cerebral cortex collected and frozen at […].

`CC(CN1CC(=O)NC(=O)C1)N1CC(=O)NC(=O)C1` (racemic) [Razoxane, 1,2-bis(3,5-dioxopiperazin-1-yl)-propane] was tested, and the “OD, Aβ1-40” value (razoxane 20 mg/kg i.p. once daily x 21 days) was 2.099 and 2.88 and 2.787 and 3.12 and 1.837 and 3.923 and the “OD, Aβ1-40” value (razoxane 30 mg/kg i.p. once daily x 21 days) was 0.781 and 2.035 and 1.888 and 0.563 and 0.596 and 1.415.
